A mixed list of measured activities; the numbers were collected in NIAID ChemDB.

Common to all: target-level tests; organism: HIV-1; protein: Reverse transcriptase; method: nucleotide incorporation / radiometric; read-out: IC50

Blank or dashed fields: not listed here. ICn is the concentration giving n% inhibition. Neighbouring rows are from separate reports. a–b is a range or a potency band.

| smiles | strain or isolate | mutations | result |
|---|---|---|---|
| NS(=O)(=O)c1ccc(NC(=O)CSc2nnc(C(F)F)n2-c2ccc(C3CCC3)c3ccccc23)c(Cl)c1 | - | RT-Y181C | <0.05 µM |
| O=C(CSc1nnc(Br)n1-c1c(Cl)cc(C2CCC2)c2ccccc12)Nc1ccc(C(=O)O)cc1Cl | - | - | <0.05 µM |
| CCN1c2ncc(CCc3cccc(O)c3)cc2C(=O)N(C)c2cccnc21 | WT | - | <1 µM |
| CCN1c2ncc(CCOc3ccc(C(=O)O)c4c3CCCC4)cc2C(=O)N(C)c2ccc(Cl)nc21 | - | RT-Y188L | 0.1–1 µM |
| CCN1c2ncc(CCc3ccncc3)cc2C(=O)Nc2c(C)ccnc21 | WT | - | <1 µM |
| CCc1ccc(-n2c(Br)nnc2SCC(=O)Nc2ccc(C(=O)O)cc2C)c2ccccc12 | - | RT-Y181C | 0.05–0.1 µM |
| CCOC(=O)[C@H](Cc1ccc(O)cc1)NC(=O)c1ccc(NC(=O)CSc2nnc(Br)n2-c2ccc(C3CC3)c3ccccc23)c(Cl)c1 | - | RT-Y181C | <0.05 µM |
| CCc1ccc(-n2c(SCC(=O)Nc3ccc(C(=O)O)cc3Cl)nnc2C(F)F)c2ccccc12 | - | - | <0.05 µM |
| CCN1c2ncc(CCc3ccncc3)cc2C(=O)N(C)c2ccc(CCc3ccncc3)nc21 | WT | - | <1 µM |
| NC(=O)c1[nH]c2ccc(Cl)cc2c1S(=O)(=O)c1ccccc1 | - | RT-Y188L | 1 µM |
| O=C(CSc1nnc(Br)n1-c1ccc(C2CC2)c2ccccc12)Nc1ccc(C(=O)O)cc1Cl | - | RT-Y181C | <0.05 µM |
| CCc1ccc(-n2c(Br)nnc2SCC(=O)Nc2ccc(C(=O)N[C@H](C(=O)OC)C(C)C)cc2Cl)c2ccccc12 | - | RT-Y188L | <0.05 µM |
| CCN1c2ncc(CC(O)c3ccncc3)cc2C(=O)N(C)c2ccc(F)nc21 | - | RT-Y181C | <1 µM |
| Cc1cc(C)cc(S(=O)(=O)c2c(C(=O)NC(C)C(N)=O)[nH]c3ccc(Cl)cc23)c1 | - | RT-K103N | 0.5 µM |
| CC(C)[C@H](NC(=O)c1ccc(NC(=O)CSc2nnc(Br)n2-c2ccc(C3CC3)c3ccccc23)c(Cl)c1)C(=O)O | - | - | 0.05–0.1 µM |
| CN1C(=O)c2cc(CCc3ccncc3)cnc2N(C2CC2)c2nc(Cl)ccc21 | WT | - | <1 µM |
| Cc1cc(C2CC2)c2ccccc2c1-n1c(Br)nnc1SCC(=O)Nc1ccc(S(=O)(=O)O)cc1Cl | - | RT-Y188L | 0.05–0.1 µM |
| CCOC(=O)CCNC(=O)c1ccc(NC(=O)CSc2nnc(Br)n2-c2ccc(CC)c3ccccc23)c(Cl)c1 | - | RT-Y181C | <0.05 µM |
| CCN1c2ncc(CCOc3ccc(C(=O)O)c4c3CCN(S(C)(=O)=O)C4)cc2C(=O)N(C)c2cccnc21 | WT | - | <0.1 µM |
| NS(=O)(=O)c1ccc(NC(=O)CSc2nnc(Br)n2-c2c(Cl)cc(C3CCC3)c3ccccc23)c(Cl)c1 | - | RT-Y181C | <0.05 µM |
| CCc1ccc(-n2c(Br)nnc2SCC(=O)Nc2ccc(C(=O)NCC(=O)OC)cc2Cl)c2ccccc12 | - | RT-Y188L | 0.05–0.1 µM |
| NS(=O)(=O)c1ccc(NC(=O)CSc2nnc(Br)n2-c2ccc3c4c(cccc24)CC3)c(Cl)c1 | - | - | <0.05 µM |
| CCc1ccc(-n2c(Br)nnc2SCC(=O)Nc2ccc(C(=O)NCC(=O)O)cc2Cl)c2ccccc12 | - | - | <0.05 µM |
| CCc1ccc(-n2c(Br)nnc2SCC(=O)Nc2ccc(C(=O)NCCO)cc2Cl)c2ccccc12 | - | RT-Y181C | <0.05 µM |
| CCN1c2ncc(CCOc3ccc(CC(C)C(=O)O)c4ccccc34)cc2C(=O)N(C)c2ccc(F)nc21 | WT | - | <0.1 µM |
| COc1ccc2cccc(-n3c(Br)nnc3SCC(=O)Nc3ccc(C(=O)O)cc3Cl)c2c1 | - | - | <0.05 µM |
| CCN1c2ncc(CCc3ccnc(C(=O)OC)c3)cc2C(=O)N(C)c2ccc(Cl)nc21 | WT | - | <1 µM |
| CCc1ccc(-n2c(SCC(=O)Nc3ccc(C(=O)O)cc3C)nnc2C(F)F)c2ccccc12 | - | - | <0.05 µM |
| CCN1c2ncc(CCOc3cccc4c3ccc[n+]4[O-])cc2C(=O)Nc2c(C)cc(Cl)nc21 | - | RT-K103N L100I | 0.027 µM |
| CCN1c2ncc(CCOc3ccc(CC(=O)O)c4ccccc34)cc2C(=O)Nc2c(C)cc(F)nc21 | - | RT-V106A | 0.1–1 µM |
| CCc1ccc(-n2c(C)nnc2SCC(=O)Nc2ccc(S(N)(=O)=O)cc2Cl)c2c1CCCC2 | - | - | <0.05 µM |

For reference, 3 entries again:

| smiles | strain or isolate | mutations | result |
|---|---|---|---|
| COc1ccc2cccc(-n3c(Br)nnc3SCC(=O)Nc3ccc(C(=O)O)cc3Cl)c2c1 | - | - | <0.05 µM |
| CCN1c2ncc(CCc3ccncc3)cc2C(=O)N(C)c2ccc(CCc3ccncc3)nc21 | WT | - | <1 µM |
| CCN1c2ncc(CCOc3ccc(CC(C)C(=O)O)c4ccccc34)cc2C(=O)N(C)c2ccc(F)nc21 | WT | - | <0.1 µM |